# Literature values in patent US20070059684A1 (priority 1995, published 2007).
# Tested on: tcm1/mak8 mutants
# Details: cited from earlier work
substance,measurement,value
trichodermin,effectiveness in tcm1/mak8 mutants,ineffective
